We go through 4 sequences from PMC4971064.

The exact form of at least one protein or probe is not confirmed.

Data set [1] deals with PhoB (phosphorylated) (UniProt P23620). The data set is described as follows: EMSA. Particulars: acetylphosphate, Mg2+, 12 mM Tris-HCl pH 7, 23.6 mM NaCl, 0.12 M Mg acetate, 0.24 mM EDTA, 0.24 mM DTT, 1.2% glycerol, 2.3 mM acetylphosphate, 20 ug/ml poly(dI-dC), recombinant protein, protein details: His-tag. In general terms: A gel shift assay detects complexes by their altered migration in electrophoresis.

For data set [2], the system named is PhoB (phosphorylated) + sigma VreI. The data set is described as follows: EMSA. The following applies: VreI added to preformed PhoB-DNA complex II; 12 mM Tris-HCl pH 7, 23.6 mM NaCl, 0.12 M Mg acetate, 0.24 mM EDTA, 0.24 mM DTT, 1.2% glycerol, 2.3 mM acetylphosphate, 20 ug/ml poly(dI-dC); recombinant protein; protein details: His-tag,His-tag; label: 5' fluorescein on strand 1.

The mark [3] stands for this setting: label: 5' fluorescein on strand 1.

Turning to “ACCGCAGGTACCGTCACACCACAGTCACACAGTGCCATCAGGATGTCCCTCCTGGGTGATGGCCATCTGG (double strand) [PvreA]”, the binding result in data set [1] (setting [3]) is on record as “binds”.

“CGCTCCGCTCCATGAACTTTCCATGACAAGTCTTCGGCCCACCCTCCGCCAGGCCGTCTACCAGTAA (double strand) [PpdtA (32P)]”: in data set [1] (two complexes (I and II), label: 5' 32P), the binding result is on record as “binds”. In the case of “CGCTCCGCTCCATGAACTTTCCATGACAAGTCTTCGGCCCACCCTCCGCCAGGCCGTCTACCAGTAA (double strand) [PpdtA (fluorescein)]”, the binding result in data set [2] and in data set [1] (setting [3]) was “binds” each time. Consider “CGGCCGGTCGCATGAAGTTTTCATGACAAAAGTTCGGTGGTGCGGCGGGGTTGCCGTCAAACAGGTGT (double strand) [PphdA]”, for which the binding result in data set [1] (setting [3]) is “binds”.
